Source: paper PMC10974768 (Toxins, 2024)

System: chicken liver microsomes (CYP450)
Conditions: Michaelis-Menten, PH (CYP1A2), BP (CYP2B6), CLN (CYP2E1), TBD (CYP2C9), CAN (CYP2A6), MDZ (CYP3A4), n = 3
Procedure: A cocktail-approach for elucidating the metabolites profiling and CYP450 inhibition was conducted as in Lin et al. with minor changes. […] Probes substrates were dissolved in methanol as stock solution (1 mg/mL). All of them were diluted to the final concentrations (see Supplemental Materials) with incubation buffer and the percentage of organic solvent in the final incubation volume was below 1% (v/v). Briefly, the mixture was preincubated in a thermoshaker (Biosan, Geraardsbergen, Belgium) for 5 min at 37 °C prior to the initiation of the reaction with NADPH.4Na. After incubation, the mixture was terminated by 400 μL ice-cold acetonitrile. […] A volume of 5 µL of supernatant was analysed using UHPLC-MS/MS.
Enzyme kinetic studies were conducted for the six CYP450-related probes reactions. For each probe, the maximum rate of the Vmax and Km were obtained using GraphPad Prism v.8.0.2 software via Michaelis-Menten Kinetic model (La Jolla, CA, USA). The incubation times of 5, 10, 15, 30, 45 and 60 min were tested individually. A series of protein concentrations (0.05, 0.1, 0.2, 0.4, 0.6, 0.8 and 1 mg/mL) of CLM in the incubation mixture were conducted. Triplicate analyses were performed for each incubation system.

CC(NC(C)(C)C)C(=O)c1cccc(Cl)c1 (stereo not shown) [Bupropion]
Vmax: 88.9 nmol/min/mg
